A mixed list of measured activities; the numbers were collected in NIAID ChemDB.

Common to all: cytotoxicity tests; cells: CEM; measure: CC50

Rows are shuffled and stem from different studies. CCn is the concentration with n% toxicity to the cells. Blank or dashed fields: not listed here.

{"SMILES": "CCOC(=O)CCc1ccccc1O[P@@](=O)(N[C@@H](C)C(=O)OC(C)C)OC[C@H]1O[C@@H](n2cnc3c(N)nc(N)nc32)[C@](C)(O)[C@@H]1O", "result": ">100 µM"}
{"SMILES": "CC(C)(C)OC(=O)N[C@@H](Cc1ccccc1)[C@H](O)CNC[C@@H](O)[C@H](Cc1ccccc1)NC(=O)OC(C)(C)CO", "result": ">10 µM"}
{"SMILES": "Nc1ncnc2c1ncn2[C@@H]1C=C[C@H](CO)O1", "result": "37 µM"}
{"SMILES": "CC(C)(C)OC(=O)N[C@@H](Cc1ccccc1)[C@@H](O)[C@@H](O)[C@H](Cc1ccccc1)NC(=O)c1ccccc1NC(=O)OCc1ccccn1", "result": ">0.4 µM"}
{"SMILES": "CC1=NN(c2nc(N)nc(C(C)Sc3cc(Cl)c(C)cc3S(N)(=O)=O)n2)C(C)(C)C1", "result": "43.1 µM"}
{"SMILES": "O/N=C1\\C(=C\\c2ccc3c(c2)OCO3)CCCC1C(NO)c1ccc2c(c1)OCO2", "result": ">127 µM"}
{"SMILES": "Nc1nc2c(ncn2[C@H]2C=C[C@@H](CO)O2)c(=O)o1", "read by": "MTT", "result": "300 µg/mL"}
{"SMILES": "CCc1c(NCc2cccc3ccccc23)cc(C)oc1=O", "read by": "MTT", "result": "41 µM"}
{"SMILES": "CCN(C)C(=O)c1cnnn1C1OC(CO[Si](C)(C)C(C)(C)C)C2(OS(=O)(=O)C=C2N)C1O[Si](C)(C)C(C)(C)C", "result": "≥250 µM"}
{"SMILES": "C[C@H]1c2cccc(O)c2C(O)=C2C(=O)[C@]3(O)C(O)=C(C(N)=O)C(=O)[C@@H](N(C)C)[C@@H]3[C@@H](O)[C@@H]21", "result": ">3.3 µg/mL"}
{"SMILES": "O=C1c2c(O)cc(O)c(O)c2C(=O)c2c(O)cc(O)c(O)c21", "result": "13.5 µM"}
{"SMILES": "O=C(Nc1ccccc1C(=O)N[C@@H](Cc1ccccc1)C[C@H](O)[C@H](Cc1ccccc1)NC(=O)c1cccc(O)c1)OCc1ccccn1", "result": ">0.3 µM"}
{"SMILES": "Cc1cc(O)c2c(c1O)C(=O)C13C(=C2O)C(=O)C2C(O)C1C1C(O)C3C(=O)C3=C(O)c4c(O)cc(C)c(O)c4C(=O)C321", "result": "0.09 µM"}
{"SMILES": "CC(=O)OC(OC(C)=O)c1cc(C)c2c(c1)COP(=O)(OC[C@@H]1C=C[C@H](n3cc(C)c(=O)[nH]c3=O)O1)O2", "result": "19 µM"}
{"SMILES": "CC(C)=CCN1Cc2cccc3[nH]c(=S)n(c23)C[C@@H]1C", "result": ">174 µM"}
{"SMILES": "Cc1cc(SC2=C(O)CC(CCc3ccc(O)cc3)(C3CCCCC3)OC2=O)c(C(C)(C)C)cc1OS(=O)(=O)N(C)C", "result": "60 µM"}
{"SMILES": "Nc1ccn([C@H]2CC[C@@H](CO)O2)c(=O)n1", "result": "8 µM"}
{"SMILES": "CN(C)[C@@H]1C(=O)C(C(=O)NCNC(CO)(CO)CO)=C(O)[C@@]2(O)C(=O)C3=C(O)c4c(O)cccc4[C@@](C)(O)[C@H]3C[C@@H]12.Cl", "result": ">34.3 µM"}
{"SMILES": "CC(C)(C)[Si](C)(C)OC[C@H]1O[C@@H](n2cnc3nc[nH]c(=O)c32)[C@H](O[Si](C)(C)C(C)(C)C)C12OS(=O)(=O)C=C2N", "result": "8.3 µg/mL"}
{"SMILES": "Cc1cc(C2(c3cc(C)c(O)c(CN(CC(=O)O)CC(=O)O)c3)OS(=O)(=O)c3ccccc32)cc(CN(CC(=O)O)CC(=O)O)c1O", "result": ">100 µM"}
{"SMILES": "Cc1cc(S(=O)(=O)Nc2n[nH]c(N)n2)c(S)cc1Cl", "result": ">200 µM"}
{"SMILES": "CCCC(C)(C)[Si](C)(C)OC[C@H]1O[C@@H](n2cc(C)c(=O)n(CC(=O)O)c2=O)[C@H](O[Si](C)(C)C(C)(C)CCC)[C@@H]1O", "result": "21 µM"}
{"SMILES": "CCc1c(OCc2cccc3ccccc23)cc(C)oc1=O", "read by": "MTT", "result": "4.4 µM"}
{"SMILES": "Cc1cc(S(=O)(=O)Nc2n[nH]c(N)n2)c(SCC(=O)O)cc1Cl", "result": ">200 µM"}
{"SMILES": "CC(C)(C)OC(=O)N[C@@H](Cc1ccccc1)[C@H](O)CNC[C@@H](O)[C@H](Cc1ccccc1)NC(=O)OC(C)(C)CCO", "result": ">10 µM"}
{"SMILES": "CN(C)c1ccc(O)c2c1C[C@H]1C[C@H]3[C@H](N(C)C)C(=O)C(C(N)=O)=C(O)[C@@]3(O)C(=O)C1=C2O", "result": ">2.8 µg/mL"}
{"SMILES": "CC(C)(C)OC(=O)N[C@@H](Cc1ccccc1)[C@H](O)CNC[C@@H](O)[C@H](Cc1ccccc1)NC(=O)OC(C)(C)CN", "result": ">10 µM"}
{"SMILES": "CC(C)(C)[Si](C)(C)OCC1OC(n2nncc2C(=O)NC2CCCC2)C(O[Si](C)(C)C(C)(C)C)C12OS(=O)(=O)C=C2N", "result": "≥250 µM"}
{"SMILES": "Nc1nc2c(ncn2[C@H]2OC[C@@](F)(C=CP(=O)(O)O)[C@H]2F)c(=O)[nH]1", "read by": "MTT", "result": ">100 µM"}
{"SMILES": "Cc1cc(N(Cc2cccc3ccccc23)C(=O)C(Cl)Cl)cc(=O)o1", "read by": "MTT", "result": "50 µM"}
{"SMILES": "CCCC1(CCc2ccc(O)cc2)CC(O)=C(Sc2cc(C)c(OCCO)cc2C(C)(C)C)C(=O)O1", "result": "70 µM"}
{"SMILES": "Cc1cc(NCCc2cccc3ccccc23)cc(=O)o1", "read by": "MTT", "result": "76 µM"}
{"SMILES": "CN(C)[C@@H]1C(=O)C(C(N)=O)=C(O)[C@@]2(O)C(=O)C3=C(O)c4c(O)cccc4[C@@](C)(O)[C@H]3C[C@@H]12", "result": ">40.5 µM"}
{"SMILES": "CC(C)(C)[Si](C)(C)OC[C@H]1O[C@@H](n2cnc3c(=O)n(CC(=O)O)cnc32)[C@H](O[Si](C)(C)C(C)(C)C)[C@@H]1O", "result": "≥250 µM"}
{"SMILES": "CCOC(=O)CCc1ccccc1O[P@@](=O)(N[C@@H](C)C(=O)OCC)OC[C@H]1O[C@@H](n2cnc3c(N)nc(N)nc32)[C@](C)(O)[C@@H]1O", "result": ">100 µM"}
{"SMILES": "COc1cc(Nc2nc(NS(=O)(=O)c3cc(C)c(Cl)cc3S)n[nH]2)cc(OC)c1OC", "result": ">200 µM"}
{"SMILES": "COc1ccc2c(c1)N(C(=O)OC(C)C)[C@@H](CSC)C(=S)N2", "result": ">58.8 µM"}
{"SMILES": "Nc1nc2c(ncn2[C@H]2C=C[C@@H](CO)C2)c(=O)o1", "read by": "MTT", "result": ">500 µg/mL"}
{"SMILES": "CNc1ncnc2c1ncn2[C@@H]1O[C@H](CO[Si](C)(C)C(C)(C)C)C2(OS(=O)(=O)C=C2N)[C@H]1O[Si](C)(C)C(C)(C)C", "result": "7.8 µg/mL"}
{"SMILES": "CC(C)(CO)OC(=O)N[C@@H](Cc1ccccc1)[C@H](O)CNC[C@@H](O)[C@H](Cc1ccccc1)NC(=O)OC(C)(C)CO", "result": ">10 µM"}
{"SMILES": "CCOC(=O)CCc1ccccc1O[P@](=O)(N[C@@H](C)C(=O)OCC)OC[C@H]1O[C@@H](n2cnc3c(N)nc(N)nc32)[C@](C)(O)[C@@H]1O", "result": ">100 µM"}
{"SMILES": "C=C1c2cccc(O)c2C(O)=C2C(=O)[C@]3(O)C(O)=C(C(N)=O)C(=O)[C@@H](N(C)C)[C@@H]3[C@@H](O)[C@H]12", "result": ">10 µg/mL"}
{"SMILES": "Cc1cn([C@H]2C=C[C@@H](CO[Si](C)(C)C(C)(C)C)O2)c(=O)n(CC(=O)O)c1=O", "result": "185 µM"}
{"SMILES": "Nc1ncnc2c1ncn2[C@H]1OC[C@@](F)(C=CP(=O)(O)O)[C@H]1F", "read by": "MTT", "result": ">100 µM"}
{"SMILES": "Cc1cc(S(=O)(=O)Nc2n[nH]c(N)n2)c(SCc2nc(N)nc(N(C)C)n2)cc1Cl", "result": ">200 µM"}
{"SMILES": "Cc1cc(SC2=C(O)C[C@@](CCc3ccc(O)cc3)(C(C)C)OC2=O)c(C(C)(C)C)cc1N", "result": "211 µM"}
{"SMILES": "Nc1ncnc2c1ncn2[C@H]1OC[C@@](F)(CCP(=O)(O)O)[C@H]1F", "read by": "MTT", "result": ">100 µM"}
{"SMILES": "Nc1ccn([C@H]2CC[C@@H](CO)O2)c(=O)n1", "result": "1.8 µM"}
{"SMILES": "Cc1cc(SC2=C(O)CC(CCc3ccc(O)cc3)(C3CCCC3)OC2=O)c(C(C)(C)C)cc1OCCO", "result": "78 µM"}
{"SMILES": "Nc1nc2c(ncn2[C@@H]2C[C@H](CO)[C@@H](O)[C@H]2O)c(=O)o1", "read by": "MTT", "result": ">500 µg/mL"}
{"SMILES": "OC[C@@H]1O[C@H](n2c(=S)n([C@@H]3O[C@H](CO)[C@@H](O)[C@H]3O)c3cc(Cl)c(Cl)cc32)[C@@H](O)[C@H]1O", "result": ">100 µM"}
{"SMILES": "Cc1cc(S(=O)(=O)NC2=NCCCN2)c(S)cc1Cl", "result": "103 µM"}
{"SMILES": "Cc1cc(SC2=C(O)C[C@@](CCc3ccc(N)cc3)(C(C)C)OC2=O)c(C(C)(C)C)cc1CO", "result": "210 µM"}
{"SMILES": "CCn1cnc2ncn([C@@H]3O[C@H](CO[Si](C)(C)C(C)(C)C)C4(OS(=O)(=O)C=C4N)[C@H]3O[Si](C)(C)C(C)(C)C)c2c1=O", "result": "98 µg/mL"}
{"SMILES": "COC(=O)Cn1c(=O)c(C)cn([C@H]2C[C@H](N=[N+]=[N-])[C@@H](CO[Si](C)(C)C(C)(C)C)O2)c1=O", "result": "10 µM"}
{"SMILES": "CC(=O)Oc1cc(S(=O)(=O)Nc2n[nH]c(N)n2)c(S)cc1Cl", "result": ">200 µM"}
{"SMILES": "O=C(Nc1ccccc1C(=O)N[C@@H](Cc1ccccc1)[C@H](O)[C@H](O)[C@H](Cc1ccccc1)NC(=O)OC1CCOC1)OCc1ccccn1", "result": ">0.06 µM"}
{"SMILES": "S=c1[nH]c2cc(Cl)c(Cl)cc2[nH]1", "result": ">100 µM"}
{"SMILES": "CCOC(=O)N[C@H](C(=O)N[C@@H](Cc1ccccc1)[C@@H](O)C[C@H](Cc1ccccc1)NC(=O)c1ccccc1NC(=O)OCc1ccccn1)C(C)CC", "result": ">0.05 µM"}
{"SMILES": "Cc1cc(S(=O)(=O)Nc2nc(Nc3ccc(Cl)cc3)nn2C)c(S)cc1Cl", "result": "67.6 µM"}
{"SMILES": "CN(C)[C@@H]1C(=O)C(C(=O)NCNc2nc3n[nH]nc3c(=O)[nH]2)=C(O)[C@@]2(O)C(=O)C3=C(O)c4c(O)cccc4[C@@](C)(O)[C@H]3C[C@@H]12", "result": ">100 µM"}
{"SMILES": "COc1cc(O)c2c(c1O)C(=O)c1cc(C)ncc1C2=O", "result": "3.1 µM"}
{"SMILES": "O=C(Nc1ccccc1C(=O)N[C@@H](Cc1ccccc1)[C@@H](O)[C@@H](O)[C@H](Cc1ccccc1)NC(=O)c1cccc(O)c1)OCc1ccccn1", "result": ">0.9 µM"}
{"SMILES": "Cc1cc(S(=O)(=O)Nc2nc(N)nc(N(C)C)n2)c(SC(C(=O)O)c2ccccc2)cc1Cl", "result": ">200 µM"}
{"SMILES": "CC(C)(C)[Si](C)(C)OCC1OC(n2nncc2C(=O)NC2CC2)C(O[Si](C)(C)C(C)(C)C)C12OS(=O)(=O)C=C2N", "result": "46 µM"}
{"SMILES": "CC1COCCOC(=O)c2cccc(n2)C(=O)OCCOCC(C)O1", "result": "0.8 µM"}
{"SMILES": "CC(=O)OC(OC(C)=O)c1ccc2c(c1)COP(=O)(OC[C@@H]1C=C[C@H](n3cc(C)c(=O)[nH]c3=O)O1)O2", "result": "99 µM"}
{"SMILES": "CC(C)(C)OC(=O)N[C@@H](Cc1ccccc1)[C@H](O)CNC[C@@H](O)[C@H](Cc1ccccc1)NC(=O)OCCO", "result": ">10 µM"}
{"SMILES": "CC(C)(C)[Si](C)(C)OC[C@H]1O[C@@H](n2cnc3[nH]c(=O)[nH]c(=O)c32)[C@H](O[Si](C)(C)C(C)(C)C)C12OS(=O)(=O)C=C2N", "result": "9.1 µg/mL"}
{"SMILES": "Cc1cn([C@@H]2O[C@H](CO[Si](C)(C)C(C)(C)C)C3(OS(=O)(=O)C=C3N)[C@H]2O[Si](C)(C)C(C)(C)C)c(=O)n(C)c1=O", "result": ">82.8 µM"}
{"SMILES": "Cc1cc(S(=O)(=O)Nc2nnc3c4c(C)csc4ncn23)c(S)cc1Cl", "result": "117.2 µM"}
{"SMILES": "C=CCOC(=O)CCCCCCC", "result": "357 µM"}
{"SMILES": "Cc1cn([C@@H]2O[C@H](CO[Si](C)(C)C(C)(C)C)[C@@H](O[Si](C)(C)C(C)(C)C)[C@H]2O)c(=O)n(CCO)c1=O", "result": "68 µM"}
{"SMILES": "C=CCOC(=O)CCCCC", "result": "240 µM"}
{"SMILES": "CCOC(=O)[C@H](C)NP(=O)(OC[C@H]1O[C@@H](n2cnc3c(N)nc(N)nc32)[C@](C)(O)[C@@H]1O)Oc1ccccc1CCC(=O)OC(C)C", "result": ">100 µM"}
{"SMILES": "CN(C)[C@@H]1C(=O)C(C(=O)NCN2CCCC2)=C(O)[C@@]2(O)C(=O)C3=C(O)c4c(O)cccc4[C@@](C)(O)[C@H]3C[C@@H]12", "result": ">45.5 µM"}
{"SMILES": "COc1cc(OC)c2c(O)c3c(c(-c4ccc5cc6c(c(O)c5c4O)C(=O)CC(C)(O)C6)c2c1)CC(C)OC3C", "result": "15.6 µM"}

A second listing of 7 rows from above:

SMILES | read by | result
Cc1cc(S(=O)(=O)Nc2n[nH]c(N)n2)c(SCC(=O)O)cc1Cl | - | >200 µM
CC(C)(C)OC(=O)N[C@@H](Cc1ccccc1)[C@H](O)CNC[C@@H](O)[C@H](Cc1ccccc1)NC(=O)OC(C)(C)CN | - | >10 µM
Cc1cc(S(=O)(=O)Nc2nnc3c4c(C)csc4ncn23)c(S)cc1Cl | - | 117.2 µM
S=c1[nH]c2cc(Cl)c(Cl)cc2[nH]1 | - | >100 µM
CN(C)[C@@H]1C(=O)C(C(=O)NCNC(CO)(CO)CO)=C(O)[C@@]2(O)C(=O)C3=C(O)c4c(O)cccc4[C@@](C)(O)[C@H]3C[C@@H]12.Cl | - | >34.3 µM
CC(C)(C)[Si](C)(C)OC[C@H]1O[C@@H](n2cnc3c(=O)n(CC(=O)O)cnc32)[C@H](O[Si](C)(C)C(C)(C)C)[C@@H]1O | - | ≥250 µM
CC(=O)OC(OC(C)=O)c1ccc2c(c1)COP(=O)(OC[C@@H]1C=C[C@H](n3cc(C)c(=O)[nH]c3=O)O1)O2 | - | 99 µM